Pooled drug test results. Numbers come from NIAID ChemDB, via PubChem.

Shared fields: tests in culture; agent: HIV-1; read by: MTT; read-out: EC50

ECn is the concentration giving n% inhibition of infection, replication or growth. Conditions beyond the fields shown may differ between rows. An empty or dashed field is not shown.

Cc1cn([C@H]2C[C@H](N=[N+]=[N-])[C@@H](CO)O2)c(=O)[nH]c1=O ; changes: F227L V106A ; cell line: MT-4 ; result: 0.0065 µM
CS(=O)(=O)c1ccc(CN2CCC(N=C3C=C(Cc4ccc(Cl)cc4Cl)NS(=O)(=O)N3)CC2)cc1 ; strain or isolate: RES056 ; changes: RT-K103N Y181C ; cell line: MT-4 ; result: >224 µM
NC(=O)c1ccc(Cn2cc(CSc3nc(Cc4c(Cl)cccc4Cl)c(I)c(=O)[nH]3)nn2)cc1 ; strain or isolate: IIIB ; result: >94.13 µM
COc1cc2occ(-c3ccc(O)cc3)c(=O)c2c(O)c1CC=C(C)C ; strain or isolate: IIIB ; cell line: MT-4 ; result: >100 µg/mL
CC(C)[C@H](COCc1ccccc1)NC(=O)C(F)(F)C(=O)C(Cc1ccc(OCc2ccccc2)cc1)NC(=O)[C@@H](NC(=O)OCc1ccccc1)C(C)C ; strain or isolate: RF ; cell line: MT-4 ; result: 0.1 µM
N#Cc1cc(Cl)cc(Oc2c(Br)ccc(Cn3c(=O)[nH]c4nnccc43)c2F)c1 ; strain or isolate: K103N/Y181C ; changes: NNRTI-resistant (RT K103N/Y181C) ; cell line: MT-4 ; result: 0.038 µM
Cc1cn([C@H]2C[C@H](N=[N+]=[N-])[C@@H](CO)O2)c(=O)[nH]c1=O ; strain or isolate: IIIB ; cell line: MT-4 ; result: 0.0071 µM
Cc1cc(C#N)cc(C)c1Oc1nc(Nc2ccc(C#N)cc2)ncc1SCC(=O)N1CCSCC1 ; changes: E138K ; cell line: MT-4 ; result: 0.0472 µM
Cc1ccc(C(=O)N2CCC(NC(=O)c3cc(O)c(O)c(O)c3)CC2)cc1 ; strain or isolate: IIIB ; cell line: MT-4 ; result: >29.6 µM
Cn1c(=O)cc(Oc2nc(Nc3ccc(C#N)cc3)nc(Nc3nc4ccc(F)cc4s3)n2)c2ccccc21 ; strain or isolate: IIIB ; result: >2.26 µg/mL
CC(=O)c1ccc(Cn2cc(CSc3nc(Cc4c(Cl)cccc4Cl)c(C)c(=O)[nH]3)nn2)cc1 ; strain or isolate: RES056 ; result: >32.58 µM
CCn1cc(C(=O)O)c(=O)c2cc(I)c(Oc3ccnc(Nc4ccc(C#N)cc4)n3)cc21 ; strain or isolate: IIIB ; cell line: MT-4 ; result: 0.017 µM
Cc1ccc(S(=O)(=O)N2CCC(NC(=O)c3cc(O)c(O)c(O)c3)CC2)cc1 ; strain or isolate: IIIB ; cell line: MT-4 ; result: >66.1 µM
Cc1cn([C@H]2C[C@H](N=[N+]=[N-])[C@@H](CO)O2)c(=O)[nH]c1=O ; strain or isolate: AMD3100RES (subtype B) ; cell line: MT-4 ; result: 0.0005 µg/mL
O=[N+]([O-])c1ccc(CN2CCC(N=C3C=C(Cc4cccc5ccccc45)NS(=O)(=O)N3)CC2)cc1 ; strain or isolate: IIIB ; cell line: MT-4 ; result: 25.26 µM
COc1cccc2c1c(/C(O)=C/C(=O)C(=O)O)cn2Cc1cc(C)cc(C)c1 ; cell line: MT-4 ; result: 4.63 µM
O=C1C=C2[C@H]3C=CC[C@]2(O1)[C@H]1CCCCN31 ; strain or isolate: NL4-3 ; cell line: MT-4 ; result: 45 µM
COc1c(CCC(C)C)c(O)cc2c1C[C@H](c1ccc(O)c(CCC(C)C)c1O)CO2 ; strain or isolate: IIIB ; cell line: MT-4 ; result: >100 µg/mL
Cc1cc(C)c(S(=O)(=O)N2CCC(NC(=O)c3cc(O)c(O)c(O)c3)CC2)c(C)c1 ; strain or isolate: IIIB ; cell line: MT-4 ; result: >19.9 µM
Cc1cn([C@H]2C[C@H](N=[N+]=[N-])[C@@H](CO)O2)c(=O)[nH]c1=O ; strain or isolate: IIIB ; cell line: MT-4 ; result: 0.0056 µM
C=CC(C)(C)c1cc2c(cc1O)O[C@H](c1cc(O)c(O)c(CC=C(C)C)c1CC=C(C)C)CC2 ; strain or isolate: IIIB ; cell line: MT-4 ; result: >20 µg/mL
C=C(C)[C@H](O)COc1cc(OC)c2c(c1)C(=O)c1cc(O)cc(O)c1-2 ; strain or isolate: IIIB ; cell line: C8166 ; result: 1.58 µg/mL
O=S1(=O)NC(Cc2cccc3ccccc23)=CC(=NC2CCN(Cc3c(Cl)cccc3Cl)CC2)N1 ; strain or isolate: RES056 ; changes: RT-K103N Y181C ; cell line: MT-4 ; result: >54.73 µM
Cc1c(Cc2c(Cl)cccc2Cl)nc(SCC(=O)c2ccc(C#N)cc2)[nH]c1=O ; strain or isolate: NL4-3 ; cell line: MT-4 ; result: 1.08 µM
C#Cc1ccc(Nc2nccc(Oc3c(C)cc(-c4cn(CC(=O)Nc5ccc(Br)cc5)nn4)cc3C)n2)cc1 ; strain or isolate: IIIB ; changes: F227L and V106A ; cell line: MT-4 ; result: >19.78 µM
Cc1ccccc1Cn1cc(CSc2nc(Cc3cccc4ccccc34)c(C)c(=O)[nH]2)nn1 ; strain or isolate: IIIB ; result: >24.01 µM
O=C(NC1CCN(S(=O)(=O)c2ccc(F)cc2)CC1)c1cc(O)c(O)c(O)c1 ; strain or isolate: IIIB ; cell line: MT-4 ; result: >178.4 µM
CC(C)=CCc1c(-c2ccc(O)cc2O)oc2c3c(cc(O)c2c1=O)OC(C)(C)C=C3 ; strain or isolate: IIIB ; cell line: MT-4 ; result: >20 µg/mL
CCc1c(Cc2c(Cl)cccc2Cl)nc(SCc2ccc(C#N)cc2)[nH]c1=O ; strain or isolate: NL4-3 ; cell line: MT-4 ; result: 0.044 µM
N#Cc1ccc(Cn2cc(CSc3nc(Cc4c(Cl)cccc4Cl)cc(=O)[nH]3)nn2)cc1 ; strain or isolate: IIIB ; result: >41.12 µM
COc1ccc(CSc2nc(Cc3c(F)cccc3F)c(C)c(=O)[nH]2)cc1OC ; strain or isolate: NL4-3 ; cell line: MT-4 ; result: 0.2 µM
COc1c(CC=C(C)C)c(O)cc2oc(=O)c(-c3ccc(O)cc3O)cc12 ; strain or isolate: IIIB ; cell line: MT-4 ; result: >20 µg/mL
O=c1cc(Cc2c(Cl)cccc2Cl)nc(SCc2cn(Cc3ccccc3)nn2)[nH]1 ; strain or isolate: IIIB ; result: >273 µM
Nc1ccn([C@H]2CC[C@@H](CO)O2)c(=O)n1 ; strain or isolate: IIIB ; cell line: MT-4 ; result: 0.37 µg/mL
Cc1cc(-c2ccc(C#N)cc2)cc(C)c1Oc1ccnc(S(=O)(=O)CC(=O)Nc2ccc(C#N)cc2)n1 ; strain or isolate: IIIB ; changes: E138K ; cell line: MT-4 ; result: 0.026 µM
COC(=O)c1ccc(CSc2nc(Cc3c(F)cccc3F)c(C)c(=O)[nH]2)cc1 ; strain or isolate: NL4-3 ; cell line: MT-4 ; result: 0.142 µM
Cn1c(=O)cc(Oc2nc(Nc3ccc(C#N)cc3)nc(Nc3ccccn3)n2)c2ccccc21 ; strain or isolate: IIIB ; result: >74.1 µg/mL
Cc1cc(C#N)cc(C)c1Oc1nc(Nc2ccc(C#N)cc2)nc(N)c1Br ; strain or isolate: IIIB ; changes: L100I ; cell line: MT-4 ; result: 0.007 µM
CC(C)=CCc1c(O)ccc([C@@H]2COc3c(ccc4c3C=CC(C)(C)O4)C2)c1O ; strain or isolate: IIIB ; cell line: MT-4 ; result: >100 µg/mL
Nc1ccn([C@H]2CC[C@@H](CO)O2)c(=O)n1 ; strain or isolate: IIIB ; cell line: MT-4 ; result: 0.8 µg/mL
Cc1ccnc2c1NC(=O)c1cccnc1N2C1CC1 ; strain or isolate: 39RW024 (subtype A) ; cell line: MT-4 ; result: 0.04 µg/mL
Cc1cc(/C=C/C#N)cc(C)c1Oc1ccnc(S(=O)(=O)CC(=O)Nc2ccc(F)cc2)n1 ; changes: E138K ; cell line: MT-4 ; result: 0.023 µM
C#Cc1ccc(Nc2nccc(Oc3c(C)cc(-c4cn(CCc5ccccc5)nn4)cc3C)n2)cc1 ; strain or isolate: IIIB ; changes: K103N ; cell line: MT-4 ; result: 0.42 µM
Cc1cc(C)cc(S(=O)(=O)N2CCC(NC(=O)c3cc(O)c(O)c(O)c3)CC2)c1 ; strain or isolate: IIIB ; cell line: MT-4 ; result: >74 µM
CC(C)=CCc1c(-c2ccc(O)cc2O)oc2c([C@H]3C=C(C)C[C@@H](c4ccc(O)cc4O)[C@@H]3C(=O)c3ccc(O)cc3O)c(O)cc(O)c2c1=O ; strain or isolate: IIIB ; cell line: MT-4 ; result: >100 µg/mL
COc1ccc(Cn2cc(CSc3nc(Cc4cccc5ccccc45)cc(=O)[nH]3)nn2)cc1 ; strain or isolate: IIIB ; result: >68.53 µM
C#Cc1ccc(Nc2nccc(Oc3c(C)cc(-c4cn(Cc5ccc(C#N)cc5)nn4)cc3C)n2)cc1 ; strain or isolate: IIIB ; changes: L100I ; cell line: MT-4 ; result: >7.18 µM
Cc1cc(C#N)cc(C)c1Oc1nc(Nc2ccc(C#N)cc2)nc(N)c1Br ; strain or isolate: IIIB ; cell line: MT-4 ; result: 0.0019 µM
O=S1(=O)NC(Cc2cccc3ccccc23)=CC(=NC2CCN(Cc3ccc(F)cc3)CC2)N1 ; strain or isolate: RES056 ; changes: RT-K103N Y181C ; cell line: MT-4 ; result: >120 µM
CC(=O)Nc1nc(C)c(S(=O)(=O)N2CCC(NC(=O)c3cc(O)c(O)c(O)c3)CC2)s1 ; strain or isolate: IIIB ; cell line: MT-4 ; result: >80 µM
O=[N+]([O-])c1ccc(CN2CCC(N=C3C=C(Cc4ccc(Cl)cc4Cl)NS(=O)(=O)N3)CC2)cc1 ; strain or isolate: IIIB ; cell line: MT-4 ; result: 22.94 µM
N#Cc1cc(Cl)cc(Oc2c(Br)ccc(CN3CC(=O)NC3=O)c2F)c1 ; strain or isolate: K103N/Y181C ; changes: NNRTI-resistant (RT K103N/Y181C) ; cell line: MT-4 ; result: >0.1 µM
CCCCn1cc(C(=O)O)c(=O)c2cc(I)c(Oc3ccnc(Nc4ccc(C#N)cc4)n3)cc21 ; strain or isolate: IIIB ; cell line: MT-4 ; result: 0.0096 µM
Cc1n[nH]c(=O)n1Cc1ccc(Br)c(Oc2cc(Cl)cc(C#N)c2)c1F ; changes: Wild type ; cell line: MT-4 ; result: 0.011 µM
CCCN(C)C(=O)Oc1nsnc1-c1c(Cl)ccc(N)c1Cl ; strain or isolate: IIIB ; changes: RT-V108I ; cell line: MAGI ; result: 0.045 µM
N#Cc1cc(Cl)cc(Oc2c(Br)ccc(Cc3ccc[nH]c3=O)c2F)c1 ; strain or isolate: K103N/Y181C ; changes: NNRTI-resistant (RT K103N/Y181C) ; cell line: MT-4 ; result: >0.1 µM
C#Cc1ccc(Nc2nccc(Oc3c(C)cc(-c4cn(Cc5ccc(O)cc5)nn4)cc3C)n2)cc1 ; strain or isolate: IIIB ; changes: F227L and V106A ; cell line: MT-4 ; result: >2.1 µM
Cn1cc(Cc2ccc(Br)c(Oc3cc(Cl)cc(C#N)c3)c2F)c(=O)[nH]c1=O ; changes: Wild type ; cell line: MT-4 ; result: 0.005 µM
Nc1ccc(C(=O)N2CCC(NC(=O)c3cc(O)c(O)c(O)c3)CC2)cc1 ; strain or isolate: IIIB ; cell line: MT-4 ; result: >35.6 µM
N#Cc1cc(Cl)cc(Oc2c(Br)ccc(Cn3c(=O)[nH]c4ncccc43)c2F)c1 ; changes: Wild type ; cell line: MT-4 ; result: 0.003 µM
CC(C)=CCC1(CC=C(C)C)C=C([C@@H]2COc3c(ccc4c3C=CC(C)(C)O4)C2)C(O)=CC1=O ; strain or isolate: IIIB ; cell line: MT-4 ; result: >100 µg/mL
N#Cc1cc(Cl)cc(Oc2c(Br)ccc(Cn3ccc(=O)[nH]c3=O)c2F)c1 ; changes: Wild type ; cell line: MT-4 ; result: 0.001 µM
Cc1cn([C@H]2C[C@H](N=[N+]=[N-])[C@@H](CO)O2)c(=O)[nH]c1=O ; changes: Y188L mutant ; cell line: MT-4 ; result: 0.008 µM

The last 7 rows once more:

| smiles | strain or isolate | changes | cell line | result |
|---|---|---|---|---|
| C#Cc1ccc(Nc2nccc(Oc3c(C)cc(-c4cn(Cc5ccc(O)cc5)nn4)cc3C)n2)cc1 | IIIB | F227L and V106A | MT-4 | >2.1 µM |
| Cn1cc(Cc2ccc(Br)c(Oc3cc(Cl)cc(C#N)c3)c2F)c(=O)[nH]c1=O |  | Wild type | MT-4 | 0.005 µM |
| Nc1ccc(C(=O)N2CCC(NC(=O)c3cc(O)c(O)c(O)c3)CC2)cc1 | IIIB |  | MT-4 | >35.6 µM |
| N#Cc1cc(Cl)cc(Oc2c(Br)ccc(Cn3c(=O)[nH]c4ncccc43)c2F)c1 |  | Wild type | MT-4 | 0.003 µM |
| CC(C)=CCC1(CC=C(C)C)C=C([C@@H]2COc3c(ccc4c3C=CC(C)(C)O4)C2)C(O)=CC1=O | IIIB |  | MT-4 | >100 µg/mL |
| N#Cc1cc(Cl)cc(Oc2c(Br)ccc(Cn3ccc(=O)[nH]c3=O)c2F)c1 |  | Wild type | MT-4 | 0.001 µM |
| Cc1cn([C@H]2C[C@H](N=[N+]=[N-])[C@@H](CO)O2)c(=O)[nH]c1=O |  | Y188L mutant | MT-4 | 0.008 µM |